Source: patent US6562969B1, “Ricin inhibitors and methods for use thereof” (dated 2003)

Experiments:
ricin A chain (RTA) [1] = target: T1, ricin A chain (RTA) (Ricinus communis, UniProt P02879)
ricin A chain (RTA) [2] = target: T1, ricin A chain (RTA); conditions: cited from earlier work

Molecule	IC50 (ricin A chain (RTA) [1])	Ki (ricin A chain (RTA) [1])	other results
Nc1nc2[nH]ccc2c(=O)[nH]1	1500 µM	–	–
Nc1nc2[nH]cc(CNc3ccc(C(=O)O)cc3)c2c(=O)[nH]1	300 µM	–	–
Nc1nc2ncc(CNc3ccc(C(=O)O)cc3)nc2c(=O)[nH]1	–	600 µM	IC50 (ricin A chain (RTA) [2]): 600 µM
Nc1nc2ncc(C(O)C(O)CO)nc2c(=O)[nH]1 (stereo not shown)	–	> 2000 µM	–
formycin monophosphate	–	–	inhibition of RTA, background statement (ricin A chain (RTA) [2]): not an effective inhibitor
Cc1cc2c(=O)[nH]c(N)nc2[nH]1	250 µM	–	–

Where two headings read alike, the source gives them in different places.
